Measurements reported in PubChem BioAssay AID1259414 (Drosophila RNAi Screening Center, 2018).
In all, the deposit lists about 24,000 reagents; shown is a random part of those with a known target gene and a result. Over the whole deposit, about 1,210 (5%) got an active call. 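Inactive calls also include excluded dsRNAs with several or no targets, genes unexpressed in JW18, and well A1, regardless of score.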 Unmarked entries are inactive. The numbers tell different reagents against one gene apart. A plus sign joins genes that one reagent is predicted to hit.

Assay: 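Host factors increasing or decreasing Wolbachia levels in cultured fly cells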 (primary screen)
System: Drosophila JW18 cells infected with Wolbachia
Knock-down reagent: long dsRNA against Drosophila genes, 0.25 µg dsRNA per well of a 384-well plate
Duration: 5 days
Treatment: cells persistently infected with Wolbachia before knock-down; no added drug
Detection: 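Automated imaging of bacterial rRNA staining divided by host cell count, reported as plate-normalised robust z-score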
Reading the numbers: Wolbachia per cell robust z: higher = more Wolbachia per host cell than the plate typical
Rule for the call: 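Hit when robust z is 1.5 or more, or -1.5 or less, in at least two of three replicates; excludes dsRNAs with several or no targets, genes not expressed in JW18 and well A1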

target	dsRNA no.	Wolbachia per cell robust z, rep 1	Wolbachia per cell robust z, rep 2	Wolbachia per cell robust z, rep 3
TTLL15 (GeneID 41300)	1	0.666	1.02	0.939
Mst84Dc (GeneID 40887)	1	-0.00853	0.417	-5.95
CG34251 (GeneID 5740860)	1	0.437	0.0703	0.0658
CG14932 (GeneID 34589)	1	-0.235	-0.675	0.061
CG14932 (GeneID 34589)	2	2.8	1.07	1.5
CG4080 (GeneID 39079)	1	-8.43 (active)	0.0313	-2.75
Sfp93F (GeneID 8673963)	1	-0.489	-0.511	-0.742
CG4830 (GeneID 41477)	1	0.609	-0.445	0.931
Sprn (GeneID 39344)	1	0.816	-0.903	-0.761
egr (GeneID 36054)	1	-2.99 (active)	0.516	-2.24
yip2 (GeneID 34313)	1	0.152	1.68	0.641
nmdyn-D6 (GeneID 32396)	1	0.347	-0.539	0.668
nmdyn-D6 (GeneID 32396)	2	-0.895	0.464	1.18
CG5846 (GeneID 34326)	1	0.36	0.178	-0.638
MtnD (GeneID 326270)	1	0.0441	-1.54	-0.316
msl-2 (GeneID 33565)	1	1.07	0.884	1.36
msl-2 (GeneID 33565)	2	0.348	-0.0313	0.487
CG31974 (GeneID 33174)	1	-1.46	-0.00528	0.338
CoRest (GeneID 32941)	1	-1.55 (active)	-8.01	-8.32
CoRest (GeneID 32941)	2	-1.46	0.277	0.365
CoRest (GeneID 32941)	3	-0.535	0.0374	-0.625
CoRest (GeneID 32941)	4	-0.301	1.57	-7.56
brm (GeneID 39744)	1	1.65 (active)	1.83	0.529
brm (GeneID 39744)	2	-0.552	-2.84	0.316
CG17362 (GeneID 39545)	1	-0.517	-0.573	-1.37
CG13562 (GeneID 37797)	1	0.086	1.37	1.02
CG13562 (GeneID 37797)	2	-0.506	-0.772	-1.33
CG17486 (GeneID 3355138)	1	0.436	-0.606	-1.23
CG7785 (GeneID 42158)	1	-0.000772	-4.71	-0.937

Continued, starting with the last 6 of the part before.
target	dsRNA no.	Wolbachia per cell robust z, rep 1	Wolbachia per cell robust z, rep 2	Wolbachia per cell robust z, rep 3
brm (GeneID 39744)	2	-0.552	-2.84	0.316
CG17362 (GeneID 39545)	1	-0.517	-0.573	-1.37
CG13562 (GeneID 37797)	1	0.086	1.37	1.02
CG13562 (GeneID 37797)	2	-0.506	-0.772	-1.33
CG17486 (GeneID 3355138)	1	0.436	-0.606	-1.23
CG7785 (GeneID 42158)	1	-0.000772	-4.71	-0.937
Ziz (GeneID 34030)	1	-0.909	-0.0759	0.485
Ziz (GeneID 34030)	2	0.117	0.727	-0.0531
CG6664 (GeneID 39903)	1	-1.46	-0.424	-2.52
CG6664 (GeneID 39903)	2	2.02	0.751	-0.54
CG6664 (GeneID 39903)	3	-0.969	-1.26	-0.798
CG42467 (GeneID 8673960)	1	-0.874	1.14	-0.0269
Dhpr (GeneID 39050)	1	-0.000715	-1.07	-0.981
CG15036 (GeneID 50396)	1	-0.396	0.353	-4.18
CG15036 (GeneID 50396)	2	0.164	0.0971	-0.459
Kr (GeneID 38012)	1	-0.386	-3.13	-0.647
Acp95EF + Spase22-23	1	0.363	-2.76	-0.234
cysu (GeneID 42100)	1	0.319	0.818	1.01
cysu (GeneID 42100)	2	-0.959	-1.01	-1.02
cysu (GeneID 42100)	3	-1.19	1.07	0.588
CG14441 (GeneID 31611)	1	-0.062	-0.127	0.235
Atpalpha (GeneID 48971)	1	-0.871	-0.113	-2.05
Atpalpha (GeneID 48971)	2	-3.63	-0.877	-2.51
CG14913 (GeneID 34532)	1	0.171	0.0391	1.06
CG14913 (GeneID 34532)	2	-1.42 (active)	-2.02	-1.56
lectin-30A (GeneID 53541)	1	-4.25	-0.575	-0.523
CG1620 (GeneID 35678)	1	0.839	-0.000616	-0.197
CG1620 (GeneID 35678)	2	1.65	1.15	0.716
Odc2 (GeneID 35767)	1	0.0407	0.704	-0.183
Odc2 (GeneID 35767)	2	0.577	0.493	-0.585
Odc2 (GeneID 35767)	3	1.66	0.829	1.56
TotB (GeneID 42474)	1	0.47	0.426	0.949
CG31886 (GeneID 326170)	1	0.743	0.0685	-0.363
CG31886 (GeneID 326170)	2	0.732	-0.467	-0.0152
CG31913 (GeneID 319023)	1	-0.552	-1.08	0.122
CG31913 (GeneID 319023)	2	-1.2	0.48	-0.457
bap (GeneID 42537)	1	-1.35	-1.64	-0.00785
bap (GeneID 42537)	2	-0.506	0.343	-0.659
Mst36Fa (GeneID 318948)	1	0.671	0.644	0.373
Mst36Fa (GeneID 318948)	2	0.567	-0.198	-0.255
CG11060 (GeneID 35641)	1	-1.22	0.748	-5.18
lncRNA:noe (GeneID 43918)	1	-1.81	-1.46	-0.518
lncRNA:noe (GeneID 43918)	2	-1.69	0.543	0.338
CG34159 (GeneID 34353)	1	1.2	0.447	-0.249
CG15169 (GeneID 35161)	1	0.468	0.0275	-0.069
